How the values were obtained:
[1] = target: spike protein of authentic SARS-CoV-2 B.1.351 (SARS-CoV-2 (B.1.351)); test: cell-based or functional assay
[2] = target: spike protein of authentic SARS-CoV-2 B.1.617.2 (SARS-CoV-2 (B.1.617.2)); test: cell-based or functional assay

B1: FSR16m (designed binder)
chain: MGMEQKLISEEDLDGYIPEAPRDGQAYVRKDGEWVLLSTFLGGGGSLQGGGGSLQGSDLGKKLLEAARAGQDDEVRILMANGADVNALDLFGVTPLHLAAERGHLEIVEVLLKNGADVNAGDAFGRTPLHLAALGGHLEIVEVLLKNGADVNACDLYGVTPLHLAAGLGHLEIVEVLLKNGADVNAQDKFGKTAFDISIDNGNEDLAEILQSSSKLAAALEHHHHHH
For B1, the “IC50 against authentic Beta (B.1.351) variant” value [1] was 47 pM and the “IC50 against authentic Delta (B.1.617.2) variant” value [2] was 31 pM.
